Anti-infective test results gathered from many reports (values: NIAID ChemDB through PubChem).

Shared fields: enzyme or target tests

ICn is the concentration giving n% inhibition. An empty or dashed field is not shown. Lines come from different laboratories, so protocols vary. Inhibition is in % at the dose shown (toxicity tests: loss of growth or viability). Two numbers with a dash give a range or band.

COc1ccc(-c2cc(C(=O)O)nc3cc(-c4ccccc4)nn23)cc1 ; target: RNA-dependent RNA polymerase ; endpoint: IC50 ; species: Hepatitis C virus ; value: >10 µM
O=C(NCc1cc(Br)cs1)Nc1cscc1-c1nc(C(=O)O)c(O)c(=O)[nH]1 ; target: HCV polymerase ; endpoint: IC50 ; species: Hepatitis C virus ; value: <25 µM
CC(=O)N[C@@H](CC(=O)O)C(=O)N[C@H](CC(C(=O)O)C(=O)O)C(=O)N[C@@H](Cc1c[nH]c2cccc(C(=O)O)c12)C(=O)N[C@@H](CCC(=O)O)C(=O)N[C@@H](CC(=O)O)C(=O)N[C@@H](CS)C(=O)C(=O)O ; target: NS3/NS4A serine protease ; endpoint: Ki ; species: Hepatitis C virus ; value: 0.0000027 µM
O=C(Nc1ccc2cn[nH]c2c1)c1cc(NCCN2CCOCC2)c(F)cc1F ; target: Reverse transcriptase ; endpoint: IC50 ; species: Hepatitis B virus ; value: >1 µg/mL
CC(=O)N[C@@H](CC(=O)O)C(=O)N[C@@H](C(=O)N[C@H](C(=O)N[C@@H](CCC(=O)O)C(=O)N[C@@H](CC1CCCCC1)C(=O)N[C@@H](CS)C(=O)C(=O)O)C(c1ccccc1)c1ccccc1)C(c1ccccc1)c1ccccc1 ; target: NS3/NS4A serine protease ; endpoint: Ki ; species: Hepatitis C virus ; value: 11 µM
O=C(O)c1cc2nc(-c3ccc(Cl)cc3)cc(N3CCOCC3)n2n1 ; target: RNA-dependent RNA polymerase ; endpoint: IC50 ; species: Hepatitis C virus ; value: >10 µM
O=C(O)c1nc(-c2ccccc2COc2ccccc2)[nH]c(=O)c1O ; target: HCV polymerase ; endpoint: IC50 ; species: Hepatitis C virus ; value: <100 µM
c1ccc(COc2ccc(-c3cnc4c(-c5nn[nH]n5)cnn4c3C3CC3)cc2)cc1 ; target: RNA-dependent RNA polymerase ; endpoint: IC50 ; species: Hepatitis C virus ; value: >10 µM
CC[C@@H](C=O)NC(=O)[C@@H]1C[C@@H](OC(=O)Nc2cccc(C#N)c2)CN1C(=O)[C@@H](NC(=O)[C@@H](NC(=O)c1cnccn1)C(C)C)C(C)C ; target: NS3 protease ; endpoint: Ki ; species: Hepatitis C virus ; value: 1–100 µM
COc1cc(COc2ccc(-c3cnc4c(-c5nn[nH]n5)cnn4c3C3CCCCC3)cc2)cc(OC)c1 ; target: RNA-dependent RNA polymerase ; endpoint: IC50 ; species: Hepatitis C virus ; value: <1 µM
COc1ccc2c(O[C@@H]3C[C@H]4C(=O)C[C@]5(P(=O)(O)Cc6c(F)cccc6F)C[C@H]5CCCCCCC[C@H](CC(=O)OC5CCCC5)C(=O)N4C3)cc(-c3csc(NC(C)C)n3)nc2c1Cl ; target: Nonstructural protein 3 protease ; endpoint: Ki ; species: Hepatitis C virus ; strain: JFH-1 (gt 2a) ; read by: fluorescence ; value: 0.0038 µM
CC(=O)N[C@@H](CC(=O)O)C(=O)N[C@@H](C(=O)N[C@H](C(=O)N[C@@H](CCC(=O)O)C(=O)N[C@@H](CC1CCCCC1)C(=O)N[C@@H](CS)C(=O)C(=O)O)C(c1ccccc1)c1ccccc1)C(C(=O)O)C(=O)O ; target: NS3/NS4A serine protease ; endpoint: Ki ; species: Hepatitis C virus ; value: 0.018 µM
O=C(O)c1cnn2c(C3CCCCC3)c(-c3ccc(F)cc3)cnc12 ; target: RNA-dependent RNA polymerase ; endpoint: IC50 ; species: Hepatitis C virus ; value: 1–10 µM
O=C(O)c1nc(-c2cc3ccccc3s2)[nH]c(=O)c1O ; target: HCV polymerase ; endpoint: IC50 ; species: Hepatitis C virus ; value: <25 µM
CC(=O)N[C@@H](CC(=O)O)C(=O)N[C@@H](Cc1ccccc1)C(=O)N[C@H](C(=O)N[C@@H](CCC(=O)O)C(=O)N[C@@H](CC1CCCCC1)C(=O)N[C@@H](CS)C(=O)C(=O)O)C(c1ccccc1)c1ccccc1 ; target: NS3/NS4A serine protease ; endpoint: Ki ; species: Hepatitis C virus ; value: 125 µM
NS(=O)(=O)c1ccc(CCNc2cc(C(=O)Nc3ccc4cn[nH]c4c3)c(F)cc2F)cc1 ; target: Reverse transcriptase ; endpoint: IC50 ; species: Hepatitis B virus ; value: 0.01–0.1 µg/mL
O=C(Nc1ccccc1)Nc1ccccc1-c1nc(C(=O)O)c(O)c(=O)[nH]1 ; target: HCV polymerase ; endpoint: IC50 ; species: Hepatitis C virus ; value: <100 µM
CC[C@H](C=O)NC(=O)[C@@H](CC(C)C)NC(=O)[C@@H](NC(=O)[C@@H](NC(=O)c1ccc(O)c(CN2CCOCC2)c1)C(C)C)C(C)C ; target: NS3 protease ; endpoint: Ki ; species: Hepatitis C virus ; value: 1–100 µM
CN(C)CCNc1cc(C(=O)Nc2ccc3cn[nH]c3c2)c(F)cc1F ; target: Reverse transcriptase ; endpoint: IC50 ; species: Hepatitis B virus ; value: >1 µg/mL
COc1cccc(-c2ccc(-c3nc4cc(C(=O)O)[nH]n4c(=O)c3C3CCCCC3)cc2)c1 ; target: RNA-dependent RNA polymerase ; endpoint: IC50 ; species: Hepatitis C virus ; value: 1–10 µM
CCN(CCO)c1cc(C(=O)Nc2ccc3cn[nH]c3c2)c(F)cc1F ; target: Reverse transcriptase ; tested at: 1 µg/mL ; endpoint: inhibition ; species: Hepatitis B virus ; value: 83%
FC(F)(F)Oc1cccc(Oc2cccc(-c3cnc4c(-c5nn[nH]n5)cnn4c3C3CCCCC3)c2)c1 ; target: RNA-dependent RNA polymerase ; endpoint: IC50 ; species: Hepatitis C virus ; value: 1–10 µM
CC[C@@H](C=O)NC(=O)[C@@H]1C[C@@H](OCc2ccccc2)CN1C(=O)[C@@H](NC(=O)[C@H](CC)NC(=O)c1cnccn1)C(C)C ; target: NS3 protease ; endpoint: Ki ; species: Hepatitis C virus ; value: >100 µM
CC(=O)N[C@@H](CC(=O)O)C(=O)N[C@H](CC(C(=O)O)C(=O)O)C(=O)N[C@H](C(=O)N[C@@H](CCC(=O)O)C(=O)N[C@@H](CC1CCCCC1)C(=O)N[C@@H](CS)C(=O)C(=O)O)C(c1ccccc1)c1ccccc1 ; target: NS3/NS4A serine protease ; endpoint: Ki ; species: Hepatitis C virus ; value: 0.00004 µM
Nc1ccccc1-c1nc(C(=O)O)c(O)c(=O)[nH]1 ; target: HCV polymerase ; endpoint: IC50 ; species: Hepatitis C virus ; value: <100 µM
CC(C)CNc1cc(C(=O)Nc2ccc3cn[nH]c3c2)c(F)cc1F ; target: Reverse transcriptase ; endpoint: IC50 ; species: Hepatitis B virus ; value: >1 µg/mL
CC[C@@H](C=O)NC(=O)[C@@H]1C[C@@H](OCc2ccccc2)CN1C(=O)[C@@H](NC(=O)Cc1ccsc1)C(C)C ; target: NS3 protease ; endpoint: Ki ; species: Hepatitis C virus ; value: >100 µM
O=C(NCc1ccccc1OC(F)(F)F)Nc1cccc(-c2nc(C(=O)O)c(O)c(=O)[nH]2)c1 ; target: HCV polymerase ; endpoint: IC50 ; species: Hepatitis C virus ; value: <100 µM
CC[C@@H](C=O)NC(=O)[C@@H]1C[C@@H](OC(=O)Nc2cccc(Cl)c2)CN1C(=O)[C@@H](NC(=O)[C@@H](NC(=O)c1cnccn1)C(C)C)C(C)C ; target: NS3 protease ; endpoint: Ki ; species: Hepatitis C virus ; value: 1–100 µM
Cc1cccc(CNC(=O)Nc2cccc(-c3nc(C(=O)O)c(O)c(=O)[nH]3)c2)c1 ; target: HCV polymerase ; endpoint: IC50 ; species: Hepatitis C virus ; value: <100 µM
O=C(O)c1cc2nc(-c3ccco3)c(C3CCCCC3)c(=O)n2[nH]1 ; target: RNA-dependent RNA polymerase ; endpoint: IC50 ; species: Hepatitis C virus ; value: <1 µM
CC(=O)N[C@@H](CC(=O)O)C(=O)N[C@H](Cc1ccccc1)C(=O)N[C@H](C(=O)N[C@@H](CCC(=O)O)C(=O)N[C@@H](CC1CCCCC1)C(=O)N[C@@H](CS)C(=O)C(=O)O)C(c1ccccc1)c1ccccc1 ; target: NS3/NS4A serine protease ; endpoint: Ki ; species: Hepatitis C virus ; value: 17 µM

Repeating the final 2 entries:

SMILES | target | tested at | endpoint | species | strain | read by | value
O=C(O)c1cc2nc(-c3ccco3)c(C3CCCCC3)c(=O)n2[nH]1 | RNA-dependent RNA polymerase | - | IC50 | Hepatitis C virus | - | - | <1 µM
CC(=O)N[C@@H](CC(=O)O)C(=O)N[C@H](Cc1ccccc1)C(=O)N[C@H](C(=O)N[C@@H](CCC(=O)O)C(=O)N[C@@H](CC1CCCCC1)C(=O)N[C@@H](CS)C(=O)C(=O)O)C(c1ccccc1)c1ccccc1 | NS3/NS4A serine protease | - | Ki | Hepatitis C virus | - | - | 17 µM